The entries are a selection whose mix differs from that of the whole data set. Calls of active or inactive are those of the source. Rule as the data show it: active = inhibition above about 20%; inactive = the rest.
biological target: DNA-directed RNA polymerase subunit beta (Escherichia coli (strain K12)) (UniProt P0A8V2); assay: E. coli RNAP inhibitors, biochemical (AID 559); conditions: fluorescence transcription assay, active compounds read high,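 tested at 10 µM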;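 also: 0% = enzyme without compound and 100% = no enzyme blank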

Chains of the proteins cited; added tags and fusions are not shown.
UniProt P0A8V2, whole entry: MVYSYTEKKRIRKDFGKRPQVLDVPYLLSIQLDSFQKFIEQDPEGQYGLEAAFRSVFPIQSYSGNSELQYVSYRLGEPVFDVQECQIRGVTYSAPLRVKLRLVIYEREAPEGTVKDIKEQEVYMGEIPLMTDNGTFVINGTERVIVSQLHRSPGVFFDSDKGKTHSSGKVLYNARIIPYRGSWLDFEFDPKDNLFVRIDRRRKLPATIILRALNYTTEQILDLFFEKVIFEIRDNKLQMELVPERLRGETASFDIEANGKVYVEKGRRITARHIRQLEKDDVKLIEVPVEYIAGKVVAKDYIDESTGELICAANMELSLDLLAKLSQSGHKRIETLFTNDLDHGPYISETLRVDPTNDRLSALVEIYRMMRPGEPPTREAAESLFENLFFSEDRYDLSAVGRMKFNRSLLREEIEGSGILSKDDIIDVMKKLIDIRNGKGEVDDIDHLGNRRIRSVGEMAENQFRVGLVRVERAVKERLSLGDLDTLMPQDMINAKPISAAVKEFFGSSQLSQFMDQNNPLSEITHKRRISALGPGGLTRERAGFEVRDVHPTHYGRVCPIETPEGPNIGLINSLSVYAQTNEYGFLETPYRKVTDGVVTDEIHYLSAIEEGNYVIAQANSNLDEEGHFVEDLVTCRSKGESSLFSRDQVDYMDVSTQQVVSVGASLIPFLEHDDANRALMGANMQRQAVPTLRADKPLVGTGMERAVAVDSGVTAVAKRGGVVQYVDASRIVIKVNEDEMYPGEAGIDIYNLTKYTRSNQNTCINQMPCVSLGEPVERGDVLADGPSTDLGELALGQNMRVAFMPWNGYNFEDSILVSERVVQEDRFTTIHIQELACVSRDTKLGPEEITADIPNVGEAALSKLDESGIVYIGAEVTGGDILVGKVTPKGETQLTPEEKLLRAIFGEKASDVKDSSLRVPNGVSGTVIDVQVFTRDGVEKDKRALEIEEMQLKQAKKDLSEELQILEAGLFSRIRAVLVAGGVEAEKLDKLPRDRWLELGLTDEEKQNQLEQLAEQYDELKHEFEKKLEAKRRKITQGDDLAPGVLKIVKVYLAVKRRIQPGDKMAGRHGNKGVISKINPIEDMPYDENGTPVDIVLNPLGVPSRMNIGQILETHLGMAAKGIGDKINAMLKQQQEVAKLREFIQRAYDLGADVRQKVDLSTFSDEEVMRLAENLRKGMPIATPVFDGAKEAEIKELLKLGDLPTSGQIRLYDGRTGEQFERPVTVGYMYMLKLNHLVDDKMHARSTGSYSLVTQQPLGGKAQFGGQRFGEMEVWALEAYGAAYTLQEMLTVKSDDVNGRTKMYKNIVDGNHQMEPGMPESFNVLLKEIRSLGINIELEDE

SMILES | inhibition
N#CC1(Nc2ccccc2)CCN(CCc2ccccc2)CC1 | inactive: 0.59%
O=C(OC1CN2CCC1CC2)C1c2ccccc2Oc2ccccc21 (stereo unspecified) | inactive: 6.4%
CCC(CO)(C(=O)OC1CN2CCC1CC2)c1ccccc1 (stereo unspecified) | inactive: 8.57%
CCOc1ncccc1C(=O)NCC1(N2CCOCC2)CCCCC1 | inactive: 2.26%
Fc1ccccc1NC1CCN(Cc2ccccc2)CC1 | inactive: 5.27%
N/C(=N\O)c1c(N)no[n+]1[O-] | inactive: 7.18%
